Compound potency records, mixed from different reports. Data source: NIAID ChemDB in PubChem.

Shared fields: whole-cell or culture tests; organism: Mycobacterium tuberculosis

MIC bound: limit read from a one-dose screen.

structure | strain or isolate | measure | setting | method | tested at | value
Fc1ccc2oc(=S)n(-c3ccc(Cl)c(Cl)c3)c(=S)c2c1 | My 331/88 | MIC | 14 d | - | - | 1 µM
c1ccc(CC2CCN(CCNCC34CC5CC(CC(C5)C3)C4)CC2)cc1 | - | MIC | - | - | - | 9.4 µM
NCC1CCC(COCC2CCC(CN)O2)O1 | H37Rv | MIC bound | - | BACTEC | - | >12.5 µg/mL
CC(=O)OCC(CCl)OC(C)=O | H37Rv | MIC | - | - | - | >100 µg/mL
CC1COc2c(N3CCN(C)CC3)c(F)cc3c(=O)c(C(=O)O)cn1c23 | ATCC35838 | MIC | - | - | - | 0.25 µg/mL
CC(C)n1c(=O)nc(-c2ccccc2)c2cc3c(cc21)OCO3 | H37Rv | MIC bound | - | BACTEC | - | >12.5 µg/mL
C[C@H]1C[C@H](N)CN1c1cc2c(cc1F)c(=O)c(C(=O)O)cn2-c1ccc(F)cc1F | Drug-resistant | MIC90 | - | - | - | 8 µg/mL
CC(C)c1ccc2c(c1)CC[C@H]1[C@](C)(CNCCNCC(c3ccccc3)c3ccccc3)CCC[C@]21C | - | MIC | - | - | - | 12.5 µM
CCN(CCO)CCNc1ccc(C)c2sc3cc(OC)ccc3c(=O)c12 | H37Rv | MIC | - | BACTEC | - | ≥12.5 µg/mL
NC1CCN(c2c(F)cc3c(=O)c(C(=O)O)cn(C4CC4)c3c2Cl)C1 | ATCC 35820 | MIC | - | - | - | 0.125 µg/mL
COC1=CC(=O)c2c(O)c3c(c(O)c2C1=O)CC(C)(O)OC3 | H37Rv | inhibition | - | BACTEC | 12.8 µg/mL | 71%
CCOC(=O)Nc1cc2[nH]c(-c3ccc(Cl)cc3)nc2c(N(CCc2ccccc2)Cc2ccccc2)n1 | H37Rv | EC50 | - | - | - | <12.5 µg/mL
CO[C@H]1/C=C/O[C@@]2(C)Oc3c(C)c(O)c4c(=O)c(c5oc6cc(N7CCN(C(C)C)CC7)cc(=O)c6nc5c4c3=C2O)NC(=O)/C(C)=C\C=C\[C@H](C)[C@H](O)[C@@H](C)[C@@H](O)[C@@H](C)[C@H](OC(C)=O)[C@@H]1C | 2749 (rifampin-sensitive) | MIC | - | - | - | 0.05 µg/mL
Nc1cccc2c1C(=O)c1cccc(NC(=O)c3ccc4c5c(nsc35)-c3ccccc3C4=O)c1C2=O | H37Rv | inhibition | - | BACTEC | 12.5 µg/mL | 0%
NC[C@H]1O[C@H](O[C@H]2[C@H](O)[C@@H](O[C@H]3O[C@H](CO)[C@@H](O)[C@H](N)[C@H]3O)[C@H](N)C[C@@H]2N)[C@H](O)[C@@H](O)[C@@H]1O | Isolate 14 | MIC | - | - | - | 2 µg/mL
Nc1nc(-c2ccccc2)c(N=Nc2ccc([N+](=O)[O-])cc2Cl)s1 | H37Rv | inhibition | - | BACTEC | 6.25 µg/mL | 0%
CCOC(=O)Nc1cc2c(c(N)n1)N=C(c1ccc(O)cc1)[C@H](C)N2 | H37Rv | EC50 | - | - | - | >12.5 µg/mL
O=C1OC2(CCCCC2)OC(=O)C1=C/C=C/c1ccc([N+](=O)[O-])o1 | H37Rv | MIC | - | BACTEC | - | ≥12.5 µg/mL
CN(C)c1ccc2c(c1)C(=O)c1ccc(N(C)C)cc1C2=O | H37Rv | MIC | - | - | - | >100 µg/mL
CC(CNCC(c1ccccc1)c1ccccc1)N[C@H]1C[C@H]2CC[C@]1(C)C2(C)C | - | MIC | - | - | - | 50 µM
O=C(O)c1ccccc1S | H37Rv | MIC | - | - | - | 50 µg/mL
NC(=O)C#CC(N)=O | H37Rv | inhibition | - | BACTEC | 12.5 µg/mL | 100%
CCCCCCCCCCCNCCNCc1ccc(OC)c(OC)c1 | - | MIC | - | - | - | 50 µM
CC(=O)N(C)c1ccc(I)cc1 | H37Rv | MIC | - | - | - | >100 µg/mL
COc1ccccc1CSc1ccccn1 | H37Ra | MIC | - | - | - | >12.8 µg/mL
CCOC(=O)Nc1cc(N[C@@H](C)[C@H](O)c2ccccc2)c(N)c(N)n1 | H37Rv | inhibition | - | - | 12.5 µg/mL | 0%
C[CH2][Sn]([Cl])([Br])[CH2]C.c1cnc2c(c1)ccc1cccnc12 | H37Rv | inhibition | - | BACTEC | 12.5 µg/mL | 98%
CC(=O)c1c(O)ccc2ccccc12 | H37Rv | MIC | - | - | - | >100 µg/mL
COc1ccc(CNCCNC[C@]2(C)CCC[C@]3(C)c4ccc(C(C)C)cc4CC[C@@H]23)c(OC)c1 | - | MIC | - | - | - | 25 µM
CC(=O)NC[C@H]1CN(c2ccc(N3CCOCC3)c(F)c2)C(=O)O1 | Strain 158 | MIC | - | - | - | >16 µg/mL
OCCNCCNCCC(c1ccccc1)c1ccccc1 | - | MIC | - | - | - | 50 µM
CC[C@H]1OC(=O)[C@H](C)[C@@H](O[C@H]2C[C@@](C)(OC)[C@@H](O)[C@H](C)O2)[C@H](C)[C@@H](O[C@@H]2O[C@H](C)C[C@H](N(C)C)[C@H]2O)[C@](C)(O)C[C@@H](C)CN(C)[C@H](C)[C@@H](O)[C@]1(C)O | DRUG-SUS | MBC90 | - | - | - | >8 µg/mL
S=c1oc2ccc(Br)cc2c(=S)n1-c1cccc(Cl)c1 | My 331/88 | MIC | 21 d | - | - | 1 µM
O=C1c2ccccc2C(=O)c2c1cccc2S(=O)(=O)O | H37Rv | MIC | - | - | - | >100 µg/mL
C[C@H]1COc2c(N3CCN(C)CC3)c(F)cc3c(=O)c(C(=O)O)cn1c23 | Isolate 4 | MIC | - | - | - | 2 µg/mL
NNC(=O)c1ccncc1 | Strain 361 | MIC | - | - | - | 8 µg/mL
COc1cc(/C=C(\NC(=O)c2ccccc2)c2nc3ccc4c(c3[nH]2)C(=O)c2ccccc2C4=O)cc(OC)c1OC | H37Rv | MIC bound | - | resazurin | - | >6.25 µg/mL
COc1ccc2c(c1OC)C(=O)OC2c1cc(C2OC(=O)c3ccccc32)cc(Br)c1O | H37Rv | MIC | - | - | - | >100 µg/mL
CCOC(=O)Nc1cc(N)c([N+](=O)[O-])c(NC/C(C)=N/NC(N)=O)n1 | H37Rv | inhibition | - | - | 12.5 µg/mL | 0%
O=C1NCCN1 | H37Rv | MIC | - | - | - | >100 µg/mL
OCCCCCNCCN(Cc1ccccc1)Cc1ccccc1 | - | MIC | - | - | - | 50 µM
O=C1c2ccccc2C(=O)c2cc(S(=O)(=O)O)ccc21 | H37Rv | MIC | - | - | - | >100 µg/mL
CC(NCCNCc1ccc(C(F)(F)F)cc1)c1cccc2ccccc12 | - | MIC | - | - | - | 12.5 µM
CO[C@H]1/C=C/O[C@@]2(C)Oc3c(C)c(O)c4c(O)c(c5c(c4c3C2=O)NC2(CCN(CC(C)C)CC2)N=5)=NC(=O)/C(C)=C\C=C\[C@H](C)[C@H](O)[C@@H](C)[C@@H](O)[C@@H](C)[C@H](OC(C)=O)[C@@H]1C | Strain 68 | MIC | - | - | - | 0.25 µg/mL
C/C=C(\C)c1cc(=O)c2c(C)cc3c(c2o1)[C@](OC)(OC(C)=O)c1c(O)c([C@H]2C[C@](C)(N(C)C)[C@H](OC(C)=O)[C@H](C)O2)cc([C@H]2C[C@@H](N(C)C)[C@H](OC(C)=O)[C@@H](C)O2)c1C3=O | H37Rv | MIC | - | BACTEC | - | ≥12.8 µg/mL
CCCCCCSc1nc(Cl)nc2nc[nH]c12 | H37Rv | inhibition | - | - | 6.25 µg/mL | 0%
CCCCCCCCCCCNCCNCCc1ccc(OC)cc1 | - | MIC | - | - | - | 25 µM
C[C@H]1COc2c(N3CCN(C)CC3)c(F)cc3c(=O)c(C(=O)O)cn1c23 | MDR | MIC90 | - | - | - | 4 µg/mL
Cc1cc(=O)n(-c2ccccc2)n1C | H37Rv | MIC | - | - | - | >100 µg/mL
CO[C@H]1/C=C/O[C@@]2(C)Oc3c(C)c(O)c4c(O)c(c(/C=N/N5CCN(C/C=C/c6ccccc6)CC5)c(O)c4c3C2=O)NC(=O)/C(C)=C\C=C\[C@H](C)[C@H](O)[C@@H](C)[C@@H](O)[C@@H](C)[C@H](OC(C)=O)[C@@H]1C | 2983 (rifampin-sensitive) | MBC | - | - | - | 0.1 µg/mL
Cc1ccc(C)n1-c1ccc([As](=O)(O)O)cc1 | H37Rv | MIC | - | - | - | >100 µg/mL
c1ccc2c(c1)N=NN1CCCOC21 | H37Rv | inhibition | - | BACTEC | 12.5 µg/mL | 14%
Nc1ccc2nc(-c3ccccc3Cl)c(-c3ccccc3Cl)nc2c1 | H37Rv | MIC | - | - | - | 50 µg/mL
CC1(C)CN(CCO)C(C)(C)CN1 | H37Rv | MIC bound | - | BACTEC | - | >12.5 µg/mL
Fc1ccc2oc(=S)n(-c3ccc(Cl)cc3)c(=S)c2c1 | My 331/88 | MIC | 14 d | - | - | 2 µM
Oc1cccc(-c2cccc(OCCCCCCCCCCBr)c2)c1 | H37Rv | MIC | - | - | - | 3.12 µg/mL
COc1ccc2oc(=O)n(-c3ccc(C)cc3)c(=S)c2c1 | My 331/88 | MIC | 14 d | - | - | 16 µM
COc1ccccc1CSc1nc(=O)[nH]c2nc[nH]c12 | H37Rv | inhibition | - | - | 6.25 µg/mL | 0%
Nc1ccc([N+](=O)[O-])cc1 | H37Rv | MIC | - | - | - | 100 µg/mL
C=CCNCCNC[C@]1(C)CCC[C@]2(C)c3ccc(C(C)C)cc3CC[C@@H]12 | - | MIC | - | - | - | 25 µM
CN(C)c1ccc(C(=O)c2ccc(N(C)C)cc2)cc1 | H37Rv | MIC | - | - | - | >100 µg/mL
NNC(=O)c1ccncc1 | Isolate 5 | MIC | - | - | - | 8 µg/mL
COc1ccc(N2CCN(c3c4c(nc5ccccc35)CCCCC4)CC2)cc1 | H37Rv | inhibition | - | resazurin | 6.25 µg/mL | 52%
CC(NCCNCCc1ccccc1Cl)C12CC3CC(CC(C3)C1)C2 | - | MIC | - | - | - | 50 µM
NNc1nn[nH]n1 | H37Rv | MIC | - | - | - | >100 µg/mL
COc1ccc(Sc2ncnc3nc[nH]c23)cc1 | H37Ra | MIC | - | - | - | >12.8 µg/mL
CO[C@@H]1[C@@H](OC(N)=O)[C@@H](O)[C@H](Oc2ccc3c(O)c(NC(=O)c4ccc(O)c(CC=C(C)C)c4)c(=O)oc3c2C)OC1(C)C | H37Rv | MIC bound | - | BACTEC | - | ≤128 µg/mL
CC1CC2OC(=O)C3(C)C2C(OC3(C)O)C2(C)C(=O)C=CC12 | H37Rv | MIC | - | - | - | >100 µg/mL
NC(=O)c1cnccn1 | Isolate 10800 monodrug-resistant | MIC | - | - | - | >300 µg/mL
Oc1ccc(-c2ccc(O)c3ccccc23)c2ccccc12 | H37Rv | MIC | - | - | - | >100 µg/mL
CCCCC(CC)CN1CN(CC(CC)CCCC)CC(C)(NCCNCc2ccc(C)cc2)C1 | - | MIC | - | - | - | 25 µM
Cc1cccc(CSc2ccncc2)c1 | H37Rv | inhibition | - | - | 6.25 µg/mL | 8%
CC(C)CC(=O)C1=C(O)C(Nc2ccccc2)=CC(=O)C1=Nc1ccccc1 | H37Rv | MIC | - | BACTEC | - | 128 µg/mL
CO[C@H]1/C=C/O[C@@]2(C)Oc3c(C)c(O)c4c(O)c(c(/C=N/N5CCN(C)CC5)c(O)c4c3C2=O)NC(=O)/C(C)=C\C=C\[C@H](C)[C@H](O)[C@@H](C)[C@@H](O)[C@@H](C)[C@H](OC(C)=O)[C@@H]1C | TN3806 | MIC | - | - | - | >32 µg/mL
Cn1cc(NC(=O)c2cc(NC(=O)c3cc(NC=O)cn3C)cn2C)cc1C(=O)NCCC(=N)N | INH-r | MIC | - | - | - | 12.8 µg/mL
Nc1ccc(C(=O)O)c(O)c1 | H37Rv | MIC | - | - | - | 0.39 µg/mL
O=C(Nc1ncc([N+](=O)[O-])s1)c1cccnc1 | PZA-R | MIC | - | - | - | 12.5 µg/mL
CCOC(=O)Nc1cc(N[C@@H](C)[C@H](O)c2ccccc2)c([N+](=O)[O-])c(N)n1 | H37Rv | EC50 | - | - | - | >12.5 µg/mL
CCOc1ccccc1CNCCNCCc1ccccc1Cl | - | MIC | - | - | - | 25 µM
O=C1NC(=O)C(c2ccccc2)(c2ccccc2)N1 | H37Rv | MIC | - | - | - | >100 µg/mL
O=C1C[C@@H](c2ccccc2)NCCCCN(O)CCCN1 | H37Rv | inhibition | - | BACTEC | 12.5 µg/mL | -7%
CO[C@H]1/C=C/O[C@@]2(C)Oc3c(C)c(O)c4c(O)c(c(/C=N/N5CCN(C6CCCC6)CC5)c(O)c4c3C2=O)NC(=O)/C(C)=C\C=C\[C@H](C)[C@H](O)[C@@H](C)[C@@H](O)[C@@H](C)[C@H](O)[C@@H]1C | Isolate 900241 drug-susceptible | MIC | - | - | - | 0.5 µg/mL
Nc1ncnc2c1ncn2C1OC(CO)C(O)C1NS(=O)(=O)c1ccccc1 | H37Rv | MIC bound | - | BACTEC | - | >12.5 µg/mL
Cc1ccc(Sc2ccncc2)cc1 | H37Rv | MIC90 | - | - | - | >6.25 µg/mL

A second listing of 8 rows from above:

structure | strain or isolate | measure | setting | method | tested at | value
CC(=O)N(C)c1ccc(I)cc1 | H37Rv | MIC | - | - | - | >100 µg/mL
CO[C@H]1/C=C/O[C@@]2(C)Oc3c(C)c(O)c4c(O)c(c(/C=N/N5CCN(C6CCCC6)CC5)c(O)c4c3C2=O)NC(=O)/C(C)=C\C=C\[C@H](C)[C@H](O)[C@@H](C)[C@@H](O)[C@@H](C)[C@H](O)[C@@H]1C | Isolate 900241 drug-susceptible | MIC | - | - | - | 0.5 µg/mL
NC[C@H]1O[C@H](O[C@H]2[C@H](O)[C@@H](O[C@H]3O[C@H](CO)[C@@H](O)[C@H](N)[C@H]3O)[C@H](N)C[C@@H]2N)[C@H](O)[C@@H](O)[C@@H]1O | Isolate 14 | MIC | - | - | - | 2 µg/mL
Oc1ccc(-c2ccc(O)c3ccccc23)c2ccccc12 | H37Rv | MIC | - | - | - | >100 µg/mL
O=C(O)c1ccccc1S | H37Rv | MIC | - | - | - | 50 µg/mL
COc1ccccc1CSc1ccccn1 | H37Ra | MIC | - | - | - | >12.8 µg/mL
CCCCCCCCCCCNCCNCCc1ccc(OC)cc1 | - | MIC | - | - | - | 25 µM
Nc1ccc(C(=O)O)c(O)c1 | H37Rv | MIC | - | - | - | 0.39 µg/mL

Rows are shuffled and stem from different studies. ECn: concentration that inhibits the pathogen or its effect by n%. MIC50, MIC90 and the like: level of inhibition, or share of isolates inhibited. Percent inhibition refers to the dose given; in toxicity tests it is the harm to the cells. Blank or dashed fields: not listed here.